Measured values from several laboratories, pooled; numbers as filed in NIAID ChemDB.

All rows: cytotoxicity tests; cells: HepG2; measure: CC50

An empty or dashed field is not shown. CCn: concentration that lowers growth or viability of the cells by n%. Lines come from different laboratories, so protocols vary.

smiles,method,value
CCCN(Cc1ccccc1OCCCCCC(=O)OCC)C(=O)c1ccc(Br)cc1,-,>20 µM
CNC(=O)[C@@H]1CCC[C@H](n2c(NC(C)C)nc3c(c2=O)C[C@@H](C)N(C(=O)c2ccc(Cl)c(C(F)(F)F)c2)C3)C1,luminescence,40.3 µM
Cc1cccc(NC(=O)c2c(C)c(C(=O)C(=O)NC(C)(C)C)n(C)c2C)c1F,MTT,>30 µM
CC(C)N(Cc1cccc(OCCCCCC(=O)OC(=O)O)c1)C(=O)c1ccc(-c2cc3ccccc3n2S(=O)(=O)c2ccccc2)cc1,-,>20 µM
CNC(=O)c1c(Cl)c(-n2c(NC(C)C)nc3c(c2=O)C[C@@H](C)N(C(=O)c2ccc(Br)c(C(F)(F)F)c2)C3)nn1C,luminescence,>50 µM
CCOC(=O)COc1ccc(CO)cc1,-,>20 µM
Cc1cc(NC(=O)c2c(C)c(C(=O)C(=O)Nc3cccnc3N3CCOCC3)n(C)c2C)ccc1F,MTT,>30 µM
O=C(NCc1ccccc1)c1ccc(-c2ccc3c(c2)OCO3)cc1,-,>20 µM
Cc1cc(NC(=O)c2c(C)c(C(=O)C(=O)NC3(C)CC(OP(=O)(O)O)C3)n(C)c2C)ccc1F,MTT,>30 µM
CCOC(=O)CCCCCOc1cccc(CN(C(=O)c2ccc(-c3cccc(OC)c3)cc2)C(C)C)c1,-,>20 µM
Cc1cc(C)cc(Cc2ccc3c(NCCCNCc4ccco4)ccnc3c2)c1,fluorescence,6.27 µM
Cc1cc(NC(=O)c2c(C)c(C(=O)C(=O)NC3(C)CCC(O)CC3)n(C)c2-c2ccsc2)ccc1F,MTT,>30 µM
CCC(CC)c1ccc2c(NCCCNCc3ccco3)ccnc2c1,fluorescence,6.76 µM
CC(C)COc1cccc(-c2ccc(C(=O)N(Cc3cccc(OCCCCCC(=O)OC(=O)O)c3)C(C)C)cc2)c1,-,>20 µM
CCc1c(C(=O)Nc2ccc(F)c(C)c2)c(C)c(C(=O)C(=O)NC2(C)CC(O)C2)n1C,MTT,>30 µM
c1ccc(CCc2ccc3c(NCCCNCc4ccco4)ccnc3c2)cc1,fluorescence,16 µM
CNC(=O)c1c(Cl)c(-n2c(CC(C)C)nc3c(c2=O)C[C@@H](C)N(C(=O)c2ccc(Br)c(C(F)(F)F)c2)C3)nn1C,luminescence,30 µM
CCc1c(C(=O)Nc2ccc(F)c(C)c2)c(C)n(C)c1C(=O)C(=O)NC1(C)CCC(O)CC1,MTT,>30 µM
COc1cccc(CNCCCNc2ccnc3cc(Cc4ccccc4)ccc23)c1O,fluorescence,5.72 µM
CCOC(=O)CCCCOc1ccccc1NC(C)C,-,>20 µM
Cc1cc(NC(=O)c2c(C)c(C(=O)C(=O)NC3(C)CC(O)C3)n(C)c2C2CC2)ccc1F,MTT,>30 µM
Cc1nnc(C2CCC(n3c(NC(C)C)nc4c(c3=O)C[C@@H](C)N(C(=O)c3ccc(Cl)c(C(F)(F)F)c3)C4)CC2)o1,luminescence,>50 µM
CC(C)N(Cc1cccc(OCCCCCC(=O)OC(=O)O)c1)C(=O)c1ccc(-c2cccc(S(C)(=O)=O)c2)cc1,-,>20 µM
CCC(CC)c1ccc2c(NCCCNCc3cc(F)ccc3OC)ccnc2c1,fluorescence,7.86 µM
Cc1cc(NC(=O)c2c(C(C)C)c(C(=O)C(=O)NC3CCC(S(C)(=O)=O)CC3)n(C)c2C)ccc1F,MTT,>30 µM

3 of the rows above, restated:

smiles | method | value
Cc1cc(NC(=O)c2c(C)c(C(=O)C(=O)NC3(C)CCC(O)CC3)n(C)c2-c2ccsc2)ccc1F | MTT | >30 µM
CCOC(=O)CCCCCOc1cccc(CN(C(=O)c2ccc(-c3cccc(OC)c3)cc2)C(C)C)c1 | - | >20 µM
Cc1cc(NC(=O)c2c(C(C)C)c(C(=O)C(=O)NC3CCC(S(C)(=O)=O)CC3)n(C)c2C)ccc1F | MTT | >30 µM